PubChem BioAssay AID504761, Drosophila RNAi Screening Center, 2011
Aim: 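Genome-wide fly cell screen for genes dengue virus requires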 (primary screen). Cells: D.Mel-2 cells from Drosophila. Reagents: long dsRNA against Drosophila genes. Challenge: infection with dengue virus type 2; dose and infection time not stated. Detection: 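Cells stained for dengue envelope protein and imaged; percent of infected cells per well on duplicate plates, ranked by infection, with stained nuclei counted for cell number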. Direction: infection score: higher = more virus-infected cells. Hit rule: 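Low infection ranks in the two replicates (chance level up to 0.065) followed by a retest with a 1.5-fold or larger significant decrease, p below 0.05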. Meaning of the calls: active = confirmed: knock-down lowers infection; inactive = not picked or not confirmed.
The deposit covers about 22,000 reagents; this is an unselected part of those that have a named target and a result. In the full data, 116 (0.52%) are marked active. 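Calls depend on retest data that are not deposited; infection was ranked per plate without normalising between plates; the unit of the infection score is not given.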 Unmarked entries are inactive. Further read-outs or replicates are left out here. Not stated in the record: the amount of reagent, the time to read-out.

gene	dsRNA	infection score, replicate 1	infection score, replicate 2
CG13806	DRSC08341	2.97	10.8
upSET	DRSC23289	2.32	0.63
CG12420	DRSC14514	15.1	5.08
CG6179	DRSC19973	7.46	7.15
Klp68D	DRSC11206	9.72	12.1
Klp68D	DRSC29890	12.9	22.5
XNP	DRSC15594	2.3	1.65
XNP	DRSC27285	19.3	29.1
Inx6	DRSC20579	5.37	2.49
Inx6	DRSC26299	10.3	3.34

Targets above whose target name begins with I or i:
gene	dsRNA	infection score, replicate 1	infection score, replicate 2
Inx6	DRSC20579	5.37	2.49
Inx6	DRSC26299	10.3	3.34

The results go on.
gene	dsRNA	infection score, replicate 1	infection score, replicate 2
CG17477	DRSC15239	2.91	
CG17477	DRSC26513	1.21	0.69
CG9628	DRSC11082	3.21	3.02
CG9628	DRSC26359	7.48	6.64
CG9733	DRSC16549	8.22	0.83
CrebB	DRSC20232	1.76	3.99
CrebB	DRSC23558	7.1	4.66
Hsp83	DRSC08664	1.12	3.34
Hsp83	DRSC25052	5.98	6.66
S-Lap8	DRSC06870	5.65	6.11
S-Lap8	DRSC21372	2.32	6.67
S-Lap8	DRSC29560	11.8	0.68
GV1	DRSC08228	5.56	1.45
GV1	DRSC25953	4.33	0.66
